Biological target: Influenza polymerase: myc-tagged PA, PB1 D446Y, PB2 K331A (Influenza A virus A/Hong Kong/156/97)
Assay: co-IP

In the case of “Influenza A virus nucleoprotein (NP), untagged, expressed from pcDNA-NP (natural protein)”, the decrease of NP co-immunoprecipitated against wild-type PB2 was 50 % less.
